We go through five molecules from ChEMBL document CHEMBL1926667, “The synthesis of 2-nitroaryl-1,2,3,4-tetrahydroisoquinolines, nitro-substituted 5,6-dihydrobenzimidazo[2,1-a]isoquinoline N-oxides and related heterocycles as potential bioreducible substrates for the enzymes NAD(P)H: quinone oxidoreductase 1 and E. coli nitroreductase” (Bioorg Med Chem Lett, 2011).

The subject of assay [1] is Escherichia coli. The assay is described as follows: Activation of Escherichia coli nitroreductase assessed as decrease in NADH concentration at 100 uM relative to CB-1954. Summed up: (§1)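 Human NQO1 or E. coli NR reduction followed by the fall in NADH concentration over time; specific activity is the rate of reduction per enzyme at 37 °C. Relative values are the specific activity compared with CB-1954.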

Assay [2] deals with Escherichia coli. The assay is described as follows: Activation of Escherichia coli nitroreductase assessed as specific activity per mg of protein at 100 uM by measuring decrease in NADH concentration. Summed up: as §1
Assay [3] deals with Escherichia coli. The assay is described as follows: Activation of Escherichia coli nitroreductase assessed as specific activity per mg of protein at 100 uM by measuring decrease in substrate concentration by HPLC analysis. Summed up: (§2)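 Reduction by human NQO1 or E. coli NR followed by the disappearance of substrate over time; specific activity is the rate of substrate reduction at 37 °C. Relative activity is the specific activity compared with CB-1954.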

Assay [4] deals with Escherichia coli. The assay is described as follows: Activation of Escherichia coli nitroreductase assessed as decrease in substrate concentration at 100 uM by HPLC analysis relative to CB-1954. The essentials:
as §2

`O=C(O)c1cc([N+](=O)[O-])cc([N+](=O)[O-])c1N1CCc2ccc([N+](=O)[O-])cc2C1`: in assay [1], the fold change (FC) is 7.4. Moreover, the Activity in assay [2] came to 14.8 µmol/min.
Take `NC(=O)c1cc(N2CCc3ccc([N+](=O)[O-])cc3C2)c([N+](=O)[O-])cc1[N+](=O)[O-]`: in assay [3], the Activity is 1.67 µmol/min. Moreover, the fold change (FC) in assay [4] came to 0.9.
Take `NC(=O)c1cc(N2CCc3c(cccc3[N+](=O)[O-])C2)c([N+](=O)[O-])cc1[N+](=O)[O-]`: in assay [3], the Activity is 1.11 µmol/min. For the same molecule, the fold change (FC) in assay [4] came to 0.6.
As for `O=[N+]([O-])c1ccc(N2CCc3c(cccc3[N+](=O)[O-])C2)c([N+](=O)[O-])c1`, the Activity in assay [3] worked out at 0.44 µmol/min. Besides, the fold change (FC) in assay [4] is 0.2.
With `O=C(O)c1cc([N+](=O)[O-])cc([N+](=O)[O-])c1N1CCc2c(cccc2[N+](=O)[O-])C1`, the fold change (FC) in assay [1] was found to be 5.3. Further, in assay [2], the Activity was found to be 9.85 µmol/min.
